The target in this experiment is HIV-1 CA hexamer from clade B (NL4-3) (Human immunodeficiency virus type 1 group M subtype B, UniProt P12493, A146C/E177C/M317A/W316A). Put plainly: SPR binding to immobilized HIV-1 CA hexamer, clade B. The settings on record: clade B (NL4.3) hexamer. For orientation: SPR reads the build-up and loss of mass on a sensor chip optically.

Where two headings read alike, the source gives them in different places.

As for PF-74, the Kd by setting is: (Langmuir isotherm equilibrium fit, 25 °C, n = 3, read-out: KD Equilibrium) 47 nM; (global fit, n = 3, read-out: KD Kinetic/Global) 47.9 nM.
